Anti-infective test results gathered from many reports (values: NIAID ChemDB through PubChem).

Shared fields: whole-cell or culture tests; species: Cryptococcus neoformans; endpoint: MIC

a–b is a range or a potency band. Neighbouring rows are from separate reports. Blank or dashed fields: not listed here.

| compound | strain | result |
|---|---|---|
| CC[C@@H]([C@H](C)O)n1ncn(-c2ccc(N3CCN(c4ccc(OC[C@@H]5CO[C@@](Cn6cncn6)(c6ccc(F)cc6F)C5)cc4)CC3)cc2)c1=O | N32 | 0.125 µg/mL |
| Cc1ccc2c(c1)c1nnc(N3CCN(C)CC3)nc1n2C | 10 strains | 8–16 µg/mL |
| COc1cc(NS(=O)(=O)c2ccc(N)cc2)nc(OC)n1 | IFM 51976 | ≥256 µg/mL |
| Clc1ccc(COC(Cn2ccnc2)c2ccc(Cl)cc2Cl)c(Cl)c1 | - | 0.3 µg/mL |
| C[C@@H](c1ncncc1F)[C@](O)(Cn1cncn1)c1ccc(F)cc1F | ATCC 90113 | 0.06 µg/mL |
| COC(=O)C1OC2(CCCC(OC(C)=O)C(C)C/C=C/c3ccccc3)OC(C(=O)O)(C(OC(=O)CCCCCC/C=C/c3ccccc3)C2O)C1(O)C(=O)O | 58063 | 25 µg/mL |
| CCCCCCCCC(Cn1ccnc1)c1ccc(Br)cc1 | - | >100 µg/mL |
| C[C@@H](N1CCc2nc(-c3ccsc3)sc2C1)[C@](O)(C[n+]1cnc[nH]1)c1ccc(F)cc1F | 32609 | 0.5 µg/mL |
| COc1cc(O)c2c(c1)C(=O)c1c(cc3c(c1O)-c1c(cc(C)c(C(=O)NC(CO)C(=O)O)c1O)[C@H](OC1OC(C)C(O)C(OC4OCC(O)C(O)C4O)C1O)C3O)C2=O | IAM 4514 | 6.3 µg/mL |
| Clc1ccc(C(Cn2ccnc2)NC/C=C/c2ccccc2)c(Cl)c1 | - | >50 µg/mL |
| C[C@@H](n1cnc2cc(Cl)ccc2c1=O)[C@](O)(Cn1cncn1)c1ccc(F)cc1F | Isolate 123.96 | 0.0024 µg/mL |
| CCCCCCCCC(Cn1ccnc1)c1ccc(F)cc1 | - | <1 µg/mL |
| Clc1ccc(OCC(Cn2ccnc2)c2ccc(Cl)cc2)cc1 | - | <1 µg/mL |
| CCCCCCCCCCCCCC(=O)O | ATCC66031 | 1920 µM |
| COc1ccc(NS(=O)(=O)c2ccc(N)cc2)nn1 | IFM 51976 | 128 µg/mL |
| C=C1/C=C(\C)[C@H](CC)OC(=O)[C@H](C)C(=O)C(O)(CO)C/C(C)=C/[C@@H](C)C1 | MY2062 | 12.5 µg/mL |
| COc1cccc2c1C(=O)c1c(O)c3c(c(O)c1C2=O)C[C@@](O)(C(C)=O)C[C@@H]3O[C@H]1C[C@H](N)[C@H](O)[C@H](C)O1 | NCPF 3379 | >100 µM |
| CCCCNOC(=O)[C@@H](C)NC(=O)c1c(C)cc2c(c1O)-c1c(cc3c(c1O)C(=O)c1cc(OC)cc(O)c1C3=O)[C@H](O)[C@H]2OC1OC(C)C(NC)C(OC2OCC(O)C(O)C2O)C1O | IAM 4514 | 3.1 µg/mL |
| CCCCC(Cn1ccnc1)c1ccc(Cl)cc1Cl | - | <1 µg/mL |
| Fc1ccc(C(Cn2ccnc2)NCc2cccc3ccccc23)cc1 | - | >50 µg/mL |
| CCC(C)CC(C)CCCCCCCCC(=O)N[C@H]1C[C@@H](O)[C@@H](O)NC(=O)[C@@H]2[C@@H](O)CCN2C(=O)[C@H]([C@H](O)CC(N)=O)NC(=O)[C@H]([C@H](O)[C@@H](O)c2ccc(O)cc2)NC(=O)[C@@H]2C[C@@H](O)CN2C(=O)[C@H]([C@@H](C)O)NC1=O | 20 isolates | >8 µg/mL |
| CNC1C(C)OC(O[C@H]2c3cc(C)c(C(=O)N[C@H](C)C(=O)N[C@@H](CCCCN)C(=O)O)c(O)c3-c3c(cc4c(c3O)C(=O)c3cc(OC)cc(O)c3C4=O)[C@@H]2O)C(O)C1OC1OCC(O)C(O)C1O | IAM 4514 | >100 µg/mL |
| COc1cc(NS(=O)(=O)c2ccc(N)cc2)ncn1 | IFM 40216 | ≥256 µg/mL |
| CCCCCCCCC(Cn1ccnc1)c1ccc(Cl)cc1Cl | - | <1 µg/mL |
| Cc1ccc2c(n1)sc1c(Cl)nnnc12 | - | 25–100 µg/mL |
| Clc1ccc(C(CCCOc2ccccc2)Cn2ccnc2)c(Cl)c1 | - | <1 µg/mL |
| CCCCCCCCOc1ccc(C(=O)NC2C[C@@H](O)[C@@H](O)NC(=O)C3[C@@H](O)[C@@H](C)CN3C(=O)C(C(C)O)NC(=O)C([C@H](O)[C@@H](O)c3ccc(O)cc3)NC(=O)C3C[C@@H](O)CN3C(=O)C(C(C)O)NC2=O)cc1 | - | 64 µg/mL |
| O=C1c2c(O)ccc(O)c2C(=O)c2c(NCCNCCO)ccc(NCCNCCO)c21 | NCPF 3379 | 32.9 µM |
| c1ccc(-c2ccc(CNC(Cn3ccnc3)c3ccccc3)cc2)cc1 | - | 1.5 µg/mL |
| CNOC(=O)[C@@H](C)NC(=O)c1c(C)cc2c(c1O)-c1c(cc3c(c1O)C(=O)c1cc(OC)cc(O)c1C3=O)[C@H](O)[C@H]2OC1OC(C)C(NC)C(OC2OCC(O)C(O)C2O)C1O | IAM 4514 | 1.6 µg/mL |
| COC(=O)[C@H]1[C@@H]2C[C@@H](O[C@@H]3O[C@H](C)[C@@H](O)[C@H](N)[C@@H]3O)/C=C/C=C/C=C/C=C/C=C/C=C/C=C/[C@H](C)[C@@H](O)[C@H](C)[C@H](C)OC(=O)C[C@H](O)C[C@H](O)[C@@H](O)CC[C@H](O)C[C@H](O)C[C@](O)(C[C@@H]1O)O2 | Clinical isolate (capsule-negative) | 10.1 µM |
| Clc1ccc(OCCC(Cn2ccnc2)c2ccc(Cl)cc2Cl)cc1 | - | <1 µg/mL |
| CNC1C(C)OC(O[C@H]2c3cc(C)c(C(=O)N[C@H](C)C(=O)N[C@@H](C)C(=O)O)c(O)c3-c3c(cc4c(c3O)C(=O)c3cc(OC)cc(O)c3C4=O)[C@@H]2O)C(O)C1OC1OCC(O)C(O)C1O | IAM 4514 | >100 µg/mL |
| CCCC(O)C/C=C\C=C\C(=O)OC[C@H]1O[C@@H](O[C@@H]2[C@H](OC(=O)/C=C/C=C/CC(O)/C(C)=C/C=C/CCC(C)CC)[C@@H](O)[C@]3(OCc4cc(O)cc(O)c43)O[C@@H]2CO)[C@H](O)[C@@H](O)[C@H]1O | MY1051 | >128 µg/mL |
| Cc1noc(NS(=O)(=O)c2ccc(N)cc2)c1C | IFM 40215 | 64 µg/mL |
| Clc1ccc(OCC(Cn2ccnc2)c2ccc(Br)cc2)cc1 | - | 10 µg/mL |
| CCCCCCC(Cn1ccnc1)c1ccc(F)cc1 | - | <10 µg/mL |
| CCCCCCCCCCCCCCCCCC(=O)NC1CC(O)C(O)NC(=O)C2C(O)C(C)CN2C(=O)C(C(C)O)NC(=O)C(C(O)C(O)c2ccc(O)cc2)NC(=O)C2CC(O)CN2C(=O)C(C(C)O)NC1=O | MY1051 | >128 µg/mL |
| Fc1ccc(C(Cn2ccnc2)NC/C=C/c2ccccc2)cc1 | - | >50 µg/mL |
| CCn1c2c(c3ccccc31)C(=O)c1cc(C)cnc1C2=O | - | >200 µg/mL |
| CCC(C)C(NC)C(=O)NC1C(=O)OC(C(C)C)C(=O)OC(CC(C)C)C(=O)NC(C(C)CC)C(=O)N(C)C(CC(C)C)C(=O)NC(C(C)O)C(=O)N(C)C(C(C)C)C(=O)NC(C)C(=O)N(C)C(CC(C)C)C(=O)OC1C | IAM 4772 | 0.31 µg/mL |
| CCC(C)C(Cn1ccnc1)c1ccc(Cl)cc1Cl | - | <10 µg/mL |

The last 5 rows once more:

compound | strain | result
CCCCCCCCCCCCCCCCCC(=O)NC1CC(O)C(O)NC(=O)C2C(O)C(C)CN2C(=O)C(C(C)O)NC(=O)C(C(O)C(O)c2ccc(O)cc2)NC(=O)C2CC(O)CN2C(=O)C(C(C)O)NC1=O | MY1051 | >128 µg/mL
Fc1ccc(C(Cn2ccnc2)NC/C=C/c2ccccc2)cc1 | - | >50 µg/mL
CCn1c2c(c3ccccc31)C(=O)c1cc(C)cnc1C2=O | - | >200 µg/mL
CCC(C)C(NC)C(=O)NC1C(=O)OC(C(C)C)C(=O)OC(CC(C)C)C(=O)NC(C(C)CC)C(=O)N(C)C(CC(C)C)C(=O)NC(C(C)O)C(=O)N(C)C(C(C)C)C(=O)NC(C)C(=O)N(C)C(CC(C)C)C(=O)OC1C | IAM 4772 | 0.31 µg/mL
CCC(C)C(Cn1ccnc1)c1ccc(Cl)cc1Cl | - | <10 µg/mL